Source: PubChem BioAssay AID1259414 (Drosophila RNAi Screening Center, 2018)
Test: 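Genome-wide screen for host control of endosymbiont load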 (primary screen). System: Drosophila JW18 cells infected with Wolbachia. Reagents: long dsRNA against Drosophila genes, 0.25 µg dsRNA per well of a 384-well plate. Timing: 5 days. Treatment: cells persistently infected with Wolbachia before knock-down; no added drug. Read-out: 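Automated imaging of bacterial rRNA staining divided by host cell count, reported as plate-normalised robust z-score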. Reading the numbers: Wolbachia per cell robust z: higher = more Wolbachia per host cell than the plate typical. Call rule: 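Active if absolute robust z reaches 1.5 in two or more of three replicates, leaving out multi- or no-target dsRNAs, genes unexpressed in JW18 and A1 wells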.
In all, the deposit lists about 24,000 reagents; this is a random part of those with a known target gene and a result. Over the whole deposit, about 1,210 (5%) were called active. 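Inactive calls also include excluded dsRNAs with several or no targets, genes unexpressed in JW18, and well A1, regardless of score.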 Entries without a mark were called inactive.

gene,amplicon,"Wolbachia per cell robust z, rep 1","Wolbachia per cell robust z, rep 2","Wolbachia per cell robust z, rep 3"
CG10132 (GeneID 35239),DRSC02013,0.103,0.698,0.678
CG10132 (GeneID 35239),DRSC27890,-0.897,0.0572,0.186
CG10132 (GeneID 35239),DRSC41589,0.68,1.02,0.697
Glyat (GeneID 3885627),DRSC37806,1.18,1.19,1.2
Osi8 (GeneID 40762),DRSC12277,0.268,-2.49,0.317
Osi8 (GeneID 40762),DRSC27462,0.809,0.54,0.808
mthl12 (GeneID 261599),DRSC12964,-1.17,0.329,0.314
Gmppa (GeneID 36730),DRSC07108,0.806,0.791,1.42
Gmppa (GeneID 36730),DRSC25683,-0.343,1.24,-1.19
neb (GeneID 35293),DRSC03577,1.49,2.01,1.14
neb (GeneID 35293),DRSC28464,0.884 (active),2.22,1.54

Entries listed above called active:
gene,amplicon,"Wolbachia per cell robust z, rep 1","Wolbachia per cell robust z, rep 2","Wolbachia per cell robust z, rep 3"
neb (GeneID 35293),DRSC28464,0.884 (active),2.22,1.54

Continued:
gene,amplicon,"Wolbachia per cell robust z, rep 1","Wolbachia per cell robust z, rep 2","Wolbachia per cell robust z, rep 3"
hid (GeneID 40009),DRSC11316,-3.88,0.26,0.342
hid (GeneID 40009),DRSC25461,0.639,-0.315,-1.05
Lsp1alpha (GeneID 32199),DRSC20258,1.19,-0.907,0.124
Lsp1alpha (GeneID 32199),DRSC25329,-1.04,-0.0208,-0.277
Dyro (GeneID 39271),DRSC10598,-2.29 (active),0.29,-5.87
Dyro (GeneID 39271),DRSC25276,-0.146,-0.0219,1.23
SmD2 (GeneID 40781),DRSC12536,0.732,-0.113,1.91
SmD2 (GeneID 40781),DRSC28703,-0.882,1.44,0.809
Obp56a (GeneID 37264),DRSC06085,-0.261,-0.442,-1.55
Obp56a (GeneID 37264),DRSC30070,0.00425,0.105,0.712
CG2157 (GeneID 32018),DRSC19836,-1.89,-2.04,0.251
CG34428 (GeneID 5740867),DRSC10119,-0.244,1.12,-0.893
Alp12 (GeneID 35218),DRSC02515,0.436,1.08,0.352
ppk25 (GeneID 2768722),DRSC04973,-0.173,-0.788,-7.43
ppk25 (GeneID 2768722),DRSC27513,0.265,0.13,0.699
Rab9 (GeneID 35221),DRSC03281,0.624,-3.04,-0.556
CG5292 (GeneID 42079),DRSC15763,-1.7 (active),-1.51,-0.488
CG5292 (GeneID 42079),DRSC26304,0.487,-0.816,0.0498
